Results of unrelated studies side by side (data: NIAID ChemDB).

Shared fields: whole-cell or culture tests

Rows are shuffled and stem from different studies.

compound	strain or isolate	organism	method	dose	cell line	endpoint	result
CC(C)C1=C2[C@H]3CC[C@@H]4[C@@]5(C)CC[C@H](OC(=O)[C@H]6C[C@@H](C(=O)O)C6(C)C)C(C)(C)[C@@H]5CC[C@@]4(C)[C@]3(C)CC[C@@]2(CCNCc2ccc3ccccc3n2)CC1=O	92HT599	HIV-1	p24 / ELISA		MT-2	EC50	<1 µM
Cc1ccnc(NC(=O)NCCc2ccccc2)n1		HIV-2	RT activity	100 µg/mL	MT-4	inhibition	100%
CC(C)C1=C2[C@H]3CC[C@@H]4[C@@]5(C)CC[C@H](OC(=O)[C@H]6C[C@@H](C(=O)O)C6(C)C)C(C)(C)[C@@H]5CC[C@@]4(C)[C@]3(C)CC[C@@]2(CCNC(=O)c2ccc(F)cc2)CC1=O	92HT599	HIV-1	p24 / ELISA		MT-2	EC50	<1 µM
CC(C)CN(CC(O)Cn1ccnc1C(=O)NC(C)(C)C)S(=O)(=O)c1ccccc1	IIIB	HIV-1	p24		CEM	EC90	1 µM
Cc1ccc(C)n1-c1ccc(C(=O)O)c(O)c1	93UG065 X4 CLADE D	HIV-1	luciferase / cell fusion		PBMC/5.25M7	EC90	32.59 µM
O=C(N[C@@H](Cc1ccccc1)C(=O)C(F)(F)CN(Cc1ccccc1)S(=O)(=O)c1ccccc1)O[C@H]1CCOC1	IIIB	HIV-1	p24		CEM	EC90	1 µM
O=C(NCCc1ccccc1)Nc1nncs1		HIV-2	RT activity	10 µg/mL	MT-4	inhibition	57%
CC(C)CN(C[C@H](O)C[C@H](Cc1ccccc1)CN1CSCC1C(=O)NC(C)(C)C)S(=O)(=O)c1ccccc1	IIIB	HIV-1	p24		CEM	EC90	1 µM
O=C(NCCc1ccccc1)Nc1cncc(Cl)n1		HIV-2	cytopathic effect / XTT	1 µg/mL	MT-4	inhibition	8–55%
CC(C)C1=C2[C@H]3CC[C@@H]4[C@@]5(C)CC[C@H](OC(=O)[C@H]6C[C@@H](C(=O)O)C6(C)C)C(C)(C)[C@@H]5CC[C@@]4(C)[C@]3(C)CC[C@@]2([C@@H](O)CNC(=O)c2ccc(N)nc2)CC1=O	92HT599	HIV-1	p24 / ELISA		MT-2	EC50	<1 µM
CC(C)CN(CCC(O)CN1CCCC[C@H]1C(=O)NC(C)(C)C)S(=O)(=O)c1ccccc1	IIIB	HIV-1	p24		CEM	EC90	1 µM
CC(C)C1=C2[C@H]3CC[C@@H]4[C@@]5(C)CC[C@H](OC(=O)[C@H]6C[C@@H](C(=O)O)C6(C)C)C(C)(C)[C@@H]5CC[C@@]4(C)[C@]3(C)CC[C@@]2([C@@H](O)CNCc2ccc3c(c2)OCO3)CC1=O	92HT599	HIV-1	p24 / ELISA		MT-2	EC50	<1 µM
O=C(NCCc1ccccc1)Nc1nc2c(Cl)cccc2s1		HIV-2	RT activity	10 µg/mL	MT-4	inhibition	72%
CC(C)C1=C2[C@H]3CC[C@@H]4[C@@]5(C)CC[C@H](OC(=O)[C@H]6C[C@@H](C(=O)O)C6(C)C)C(C)(C)[C@@H]5CC[C@@]4(C)[C@]3(C)CC[C@@]2(CCNC(=O)C2CCC2)CC1=O	92HT599	HIV-1	p24 / ELISA		MT-2	EC50	<1 µM
O=C(NCCc1ccccc1)Nc1nc(C(F)(F)F)cs1		HIV-2	cytopathic effect / XTT	100 µg/mL	MT-4	inhibition	19%

The last 2 rows once more:

compound | strain or isolate | organism | method | dose | cell line | endpoint | result
CC(C)C1=C2[C@H]3CC[C@@H]4[C@@]5(C)CC[C@H](OC(=O)[C@H]6C[C@@H](C(=O)O)C6(C)C)C(C)(C)[C@@H]5CC[C@@]4(C)[C@]3(C)CC[C@@]2(CCNC(=O)C2CCC2)CC1=O | 92HT599 | HIV-1 | p24 / ELISA |  | MT-2 | EC50 | <1 µM
O=C(NCCc1ccccc1)Nc1nc(C(F)(F)F)cs1 |  | HIV-2 | cytopathic effect / XTT | 100 µg/mL | MT-4 | inhibition | 19%

a–b is a range or a potency band. Inhibition is in % at the dose shown (toxicity tests: loss of growth or viability). ECn is the concentration giving n% inhibition of infection, replication or growth. An empty or dashed field is not shown.